Results on one molecule are retold here after patent publication US20060110801A1 (WISCONSIN ALUMNI RESEARCH FOUNDATION, published 2006).

The test concerns the target T1, T7-ATR41-227 (fusion protein having a hexahistidine tag, a T7 tag, and amino acids 41 to 227 of ATR) (human, UniProt Q9H6X2 41-227).
T1 construct: also called the I domain; extracellular fragment of ATR
T1 sequence: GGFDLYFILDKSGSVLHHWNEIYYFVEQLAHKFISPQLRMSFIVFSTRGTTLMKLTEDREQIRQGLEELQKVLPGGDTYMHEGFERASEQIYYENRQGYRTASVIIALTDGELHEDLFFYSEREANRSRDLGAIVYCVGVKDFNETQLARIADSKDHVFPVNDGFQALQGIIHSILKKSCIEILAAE
Description: pull-down on glutathione sepharose, Western blot with anti-T7-HRP. For orientation: Immunoblotting shows a protein as a band on a membrane.

B1: GST-D4 (fusion protein containing GST and the PA receptor-binding domain (D4)) (other)
chain: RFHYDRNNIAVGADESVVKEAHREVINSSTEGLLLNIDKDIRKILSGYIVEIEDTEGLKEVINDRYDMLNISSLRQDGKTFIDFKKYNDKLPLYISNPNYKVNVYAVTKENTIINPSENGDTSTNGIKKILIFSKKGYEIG
For B1, the binding result is “binds”.
